Measurements reported in PubChem BioAssay AID624099 (ICCB-Longwood, 2012)

Test: 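Host factors E2 relies on to silence an HPV18 LCR reporter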 (primary screen)
Cell system: human C33A cervical carcinoma cells (HPV-negative) stably expressing BPV1 E2 and an HPV18 LCR luciferase reporter
Knock-down reagent: siRNA pool against human genes, 40 nM
Timing: 72 h
Measurement: 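Per-well luciferase luminescence, z-scored on each plate against the plate mean and SD with control wells left out, then averaged across three replicate plates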
Scale: mean z-score and z-score: higher = stronger reporter signal, weaker E2 silencing
Rule for the call: 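Mean z ≥ 2 together with z ≥ 2 in two or more of the three replicates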
The deposit covers about 21,000 reagents; shown is a random part of them. 497 of them (2.4%) count as active. 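Higher z means weaker E2 silencing; only reporter increases were scored, and knock-downs that hurt cell survival may mask genuine repressor factors.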 Reagents against one gene are numbered here. Reagent sequences are not shown.

Target gene | pool no. | mean z-score | z-score, replicate A | z-score, replicate B | z-score, replicate C | Call
SNAP25 (synaptosome associated protein 25) | 1 | -0.47 | -0.37 | -0.64 | -0.4 | inactive
NUTM2E (NUT family member 2E) | 1 | 0.53 | 1.89 | -0.45 | 0.15 | inactive
SPATA4 (spermatogenesis associated 4) | 1 | 0.23 | -0.07 | 0.32 | 0.44 | inactive
SLC45A2 | 1 | 0.33 | 0.51 | -0.05 | 0.54 | inactive
TLK1 (tousled like kinase 1) | 1 | 1.37 | 1.41 | 1.37 | 1.32 | inactive
KCNA4 (potassium voltage-gated channel subfamily A member 4) | 1 | -1.17 | -1 | -1.3 | -1.22 | inactive
NBR2 (neighbor of BRCA1 lncRNA 2) | 1 | 0.62 | 0.68 | 0.41 | 0.78 | inactive
WASHC5 (WASH complex subunit 5) | 1 | -0.66 | -0.47 | -0.77 | -0.73 | inactive
PCP4 (Purkinje cell protein 4) | 1 | -0.68 | 2.95 | 2.84 | -7.83 | inactive
ZNF331 (zinc finger protein 331) | 1 | -0.41 | -0.11 | -0.52 | -0.59 | inactive
USP34 (ubiquitin specific peptidase 34) | 1 | -1.44 | -1.45 | -1.59 | -1.28 | inactive
UPF3B (UPF3B regulator of nonsense mediated mRNA decay) | 1 | -1.45 | -1.53 | -1.35 | -1.47 | inactive
CCDC92 (coiled-coil domain containing 92) | 1 | 0.04 | -0.02 | 0.04 | 0.11 | inactive
HSP90B1 (heat shock protein 90 beta family member 1) | 1 | 0.88 | 0.96 | 0.83 | 0.86 | inactive
TMEM229B (transmembrane protein 229B) | 1 | -0.25 | -0.29 | -0.06 | -0.4 | inactive
PDE4DIPP3 (PDE4DIP pseudogene 3) | 1 | -0.11 | -0.31 | -0.14 | 0.12 | inactive
PDE4DIPP3 (PDE4DIP pseudogene 3) | 2 | 0.78 | 1.03 | 0.53 | 0.79 | inactive
TMEM270 (transmembrane protein 270) | 1 | -0.33 | -0.36 | -0.34 | -0.3 | inactive
ARF3 (ARF GTPase 3) | 1 | 0.06 | 0.3 | -0.25 | 0.14 | inactive
ZNF256 (zinc finger protein 256) | 1 | -0.61 | -0.48 | -0.64 | -0.7 | inactive
CYSLTR1 (cysteinyl leukotriene receptor 1) | 1 | -0.06 | -0.05 | -0.12 | -0.01 | inactive
PATE4 (prostate and testis expressed 4) | 1 | 0.42 | 1.26 | -0.09 | 0.08 | inactive
TMPRSS11E (transmembrane serine protease 11E) | 1 | 0.41 | 0.32 | 0.65 | 0.27 | inactive
DSCAM (DS cell adhesion molecule) | 1 | 0.14 | 0.13 | 0.29 | -0.01 | inactive
ERLEC1 (endoplasmic reticulum lectin 1) | 1 | 0.77 | 1.08 | 0.72 | 0.51 | inactive
GNAT2 (G protein subunit alpha transducin 2) | 1 | -0.43 | -0.54 | -0.16 | -0.58 | inactive
SUSD6 (sushi domain containing 6) | 1 | -1.26 | -1.51 | -1.22 | -1.04 | inactive
ACSBG2 (acyl-CoA synthetase bubblegum family member 2) | 1 | -0.53 | -0.68 | -0.66 | -0.24 | inactive
LETM2 | 1 | 0.41 | 0.82 | -0.04 | 0.45 | inactive
ADAM10 (ADAM metallopeptidase domain 10) | 1 | 1.53 | 1.57 | 1.31 | 1.72 | inactive
RASSF5 (Ras association domain family member 5) | 1 | -0.49 | -1.19 | -0.22 | -0.07 | inactive
KSR1 (kinase suppressor of ras 1) | 1 | -0.31 | -0.4 | -0.13 | -0.41 | inactive
SWI5 (SWI5 homologous recombination repair protein) | 1 | -1.56 | -1.58 | -1.37 | -1.74 | inactive
ZNF469 (zinc finger protein 469) | 1 | -0.28 | -0.23 | -0.21 | -0.4 | inactive
WRAP73 (WD repeat containing, antisense to TP73) | 1 | 0.97 | 0.99 | 1.15 | 0.78 | inactive
GSTA2 (glutathione S-transferase alpha 2) | 1 | -0.69 | -0.69 | -0.62 | -0.76 | inactive
LOC388274 (retired record) | 1 | 0.77 | 1.15 | 0.45 | 0.71 | inactive
CDK2AP2P3 (cyclin dependent kinase 2 associated protein 2 pseudogene 3) | 1 | 2.96 | 3.04 | 2.82 | 3.01 | active
CCDC102A (coiled-coil domain containing 102A) | 1 | 0.35 | 0.51 | 0.03 | 0.52 | inactive
H2AC21 (H2A clustered histone 21) | 1 | 0.18 | -0.04 | 0.08 | 0.5 | inactive
CCDC93 (CCC complex scaffolding subunit CCDC93) | 1 | 1.13 | 0.86 | 1.3 | 1.23 | inactive
N4BP1 (NEDD4 binding protein 1) | 1 | -1.1 | -0.79 | -1.28 | -1.23 | inactive
N4BP1 (NEDD4 binding protein 1) | 2 | 2.19 | 2.45 | 1.86 | 2.27 | active
SERPINA1 (serpin family A member 1) | 1 | 1.73 | 2.48 | 1.2 | 1.51 | inactive
KRT27 (keratin 27) | 1 | 0.08 | 0.28 | -0.33 | 0.29 | inactive
OPA1 (OPA1 mitochondrial dynamin like GTPase) | 1 | 0.13 | 0.04 | 0.07 | 0.28 | inactive
LMO1 (LIM domain only 1) | 1 | 1.86 | 1.98 | 1.42 | 2.17 | inactive
MIR3667HG (MIR3667 host gene) | 1 | -0.98 | -1.06 | -1.01 | -0.86 | inactive
TNFRSF8 (TNF receptor superfamily member 8) | 1 | 2.73 | 2.98 | 2.87 | 2.35 | active
PON2 (paraoxonase 2) | 1 | 0.84 | 0.82 | 1.04 | 0.67 | inactive
COCH (cochlin) | 1 | -0.15 | 0.08 | -0.14 | -0.39 | inactive
AK5 (adenylate kinase 5) | 1 | 0.4 | 0.03 | 0.76 | 0.41 | inactive
GOLGA6B (golgin A6 family member B) | 1 | 0.38 | 0.28 | 0.31 | 0.55 | inactive
KLHL10 (kelch like family member 10) | 1 | -0.55 | -0.15 | -0.74 | -0.76 | inactive
RALB (RAS like proto-oncogene B) | 1 | 0.44 | 0.43 | 0.72 | 0.16 | inactive
MRPL46 (mitochondrial ribosomal protein L46) | 1 | -0.25 | 0.04 | -0.35 | -0.44 | inactive
SLFN11 (schlafen family member 11) | 1 | -0.26 | -0.39 | 0 | -0.39 | inactive
